Consider one molecule from PubChem BioAssay AID504850 (National Center for Advancing Translational Sciences (NCATS), 2011).

The list shows a part of the results, in another mix than the full data. Results filed as inconclusive are left out. Active and inactive are the calls of the source. The call rests on the fitted dose curve; in most records, active means well fitted inhibition curve with a large enough effect; inconclusive means small, poorly fitted or top-dose-only effect, or effect the other way; inactive means no such curve, though single readings can be large or run the other way.
Potency means the concentration at half of the fitted maximal effect.

A short description of this experiment: Confirmation screen for delayed death inhibitors of the malarial parasite plastid, 48 hour incubation. Further: nearly all actives have a fitted effect of over 65% in size. To be noted: P. falciparum-infected erythrocytes, luciferase growth.
As for `CP(=O)(Nc1ccc(SC(F)(F)F)cc1)Oc1ccccc1` (stereo unspecified), the Potency is active: 10 µM.
